Measured values from several laboratories, pooled; numbers as filed in NIAID ChemDB.

Common to all: cytotoxicity tests; cells: HepG2 cells; read-out: CC50

CCn: concentration that lowers growth or viability of the cells by n%.

| SMILES | read by | value |
|---|---|---|
| O=C(Nc1ccc(C(F)(F)F)cc1)c1cc(Br)ccc1O | tetrazolium | 2.71 µM |
| CC(C)(C)c1ccc(CNCCNc2ccnc3cc(Cl)ccc23)cc1 | MTT | 10.4 µM |
| O=C(Oc1ccc(Cl)cc1C(=O)Nc1ccc(C(F)(F)F)cc1)c1cnccn1 | tetrazolium | 3.68 µM |
| O=C(Cc1cccs1)N/N=C/c1ccccn1 | MTT | 17.8 µM |
| O=C(Oc1cc(Br)ccc1C(=O)Nc1ccc(C(F)(F)F)cc1)c1cnccn1 | tetrazolium | 8.02 µM |
| O=C(Cc1cccs1)N/N=C/c1ccc(O)c(O)c1 | MTT | 1300 µM |
| CCN(CC)CCN1C(=O)c2ccccc2NC1c1ccc(Cl)cc1Cl | luminescence | >30 µM |
| Clc1ccc2c(NCCNCc3cccnc3)ccnc2c1 | MTT | 95.9 µM |
| CCN(CC)CCN1C(=O)c2ccccc2NC1c1cc(OC)c(OC)c(OC)c1 | luminescence | >30 µM |
| CC(C)(C)c1ccc(CNCCCNc2ccnc3cc(Cl)ccc23)cc1 | MTT | 2.173 µM |
| CCN(CC)CCN1C(=O)c2ccccc2NC1c1ccc2c(c1)OCO2 | luminescence | >30 µM |
| O=C(Nc1ccc(Cl)c(Cl)c1)c1ccc(Cl)cc1OS(=O)(=O)c1ccccc1 | tetrazolium | 1.7 µM |
| CCN(CC)CCN1C(=O)c2ccccc2NC1c1ccc(F)cc1 | luminescence | >20 µM |
| Clc1ccc2c(NCCCNCc3cccnc3)ccnc2c1 | MTT | 23.3 µM |
| O=C(Oc1cc(Cl)ccc1C(=O)Nc1ccc(C(F)(F)F)cc1)c1cnccn1 | tetrazolium | 1.66 µM |
| CCCCN1C(=O)c2ccccc2NC1c1ccc(Cl)cc1 | luminescence | >30 µM |

Repeating the first 2 entries:

SMILES	read by	value
O=C(Nc1ccc(C(F)(F)F)cc1)c1cc(Br)ccc1O	tetrazolium	2.71 µM
CC(C)(C)c1ccc(CNCCNc2ccnc3cc(Cl)ccc23)cc1	MTT	10.4 µM

Neighbouring rows are from separate reports.